According to patent US4346087A, “Antibacterial surface active agent containing azaalkenelactam” (priority 1979, dated 1982):

Experiments:
[1] = Metal corrosion inhibition in brake fluid A, tin-plate; conditions: 100°±2° C., 120±2 hours, blank -0.15
[2] = Metal corrosion inhibition in brake fluid A, steel; conditions: 100°±2° C., 120±2 hours, blank -0.20
[3] = Metal corrosion inhibition in brake fluid A, aluminum; conditions: 100°±2° C., 120±2 hours, blank +0.07
[4] = Metal corrosion inhibition in brake fluid A, cast iron; conditions: 100°±2° C., 120±2 hours, blank -0.14
[5] = Metal corrosion inhibition in brake fluid A, brass; conditions: 100°±2° C., 120±2 hours, blank -0.20
[6] = Metal corrosion inhibition in brake fluid A, copper; conditions: 100°±2° C., 120±2 hours, blank +0.18
[7] = Table 4, azaalkenelactams […] by weight in brake fluid A
[8] = Table 5, carboxylate derivatives […] by weight in brake fluid A

In the case of `CCCCCCCC/C=C\CCCCCCCC(=O)OCCN1CCN=C(C)CC1=O` [Example 13, 4-oleoyloxyethyl-7-methyl-3,6-dihydro-2H-1,4-diazepin-5-one], the “Weight change, tin-plate” value [1, 7] is reported as 0 mg/cm^2, the “Weight change, steel” value [2, 7] is reported as -0.02 mg/cm^2 and the “Weight change, aluminum” value [3, 7] is reported as “+0.03 mg/cm^2”. For the same molecule, the “Weight change, cast iron” value [4, 7] was -0.03 mg/cm^2, the “Weight change, brass” value [5, 7] was -0.02 mg/cm^2 and the “Weight change, copper” value [6, 7] was “+0.01 mg/cm^2”.

For `CCCCCCCCCCCCCCC(O)CNCCN1CCC[N+](CC(=O)[O-])=CC(C)(C)C1=O` (stereo not drawn) [1-(2-hydroxyhexadecyl)aminoethyl-3,3-dimethyl-1-aza-5-azoniacyclooct-4-en-2-one-5-acetate], the “Weight change, tin-plate” value [1, 8] was -0.01 mg/cm^2, the “Weight change, steel” value [2, 8] was -0.03 mg/cm^2 and the “Weight change, aluminum” value [3, 8] was “+0.01 mg/cm^2”. The “Weight change, cast iron” value [4, 8] was -0.02 mg/cm^2, the “Weight change, brass” value [5, 8] was 0 mg/cm^2 and the “Weight change, copper” value [6, 8] was -0.01 mg/cm^2.

With `CCCCCCCCCCCCNCCNCCNCCCN1CCC[N+](CC(=O)[O-])=C(C)CC1=O` [1-dodecylaminoethylaminoethylaminopropyl-4-methyl-1-aza-5-azoniacyclooct-4-en-2-one-5-acetate] the “Weight change, tin-plate” value [1, 8] was -0.01 mg/cm^2, the “Weight change, steel” value [2, 8] was -0.02 mg/cm^2 and the “Weight change, aluminum” value [3, 8] was “+0.02 mg/cm^2”. For the same molecule, the “Weight change, cast iron” value [4, 8] was -0.01 mg/cm^2, the “Weight change, brass” value [5, 8] was 0 mg/cm^2 and the “Weight change, copper” value [6, 8] was -0.01 mg/cm^2.

With `CCCCCCCCCCC(O)CN1CC[N+](CC(=O)[O-])=CC(C)C1=O` (stereo not drawn) [4-(2-hydroxy)dodecyl-6-methyl-1-azonia-4-azacyclohept-7-en-5-one-1-acetate] the “Weight change, tin-plate” value [1, 8] was -0.03 mg/cm^2, the “Weight change, steel” value [2, 8] was -0.02 mg/cm^2 and the “Weight change, aluminum” value [3, 8] was “+0.02 mg/cm^2”. For the same molecule, the “Weight change, cast iron” value [4, 8] was -0.03 mg/cm^2, the “Weight change, brass” value [5, 8] was -0.01 mg/cm^2 and the “Weight change, copper” value [6, 8] was -0.02 mg/cm^2.

In the case of `CCCCCCCCC=CCCCCCCCCN1CCC[N+](CC(=O)[O-])=C(C)CC1=O` [1-(9-octadecenyl)-4-methyl-1-aza-5-azoniacyclooct-4-en-2-one-5-acetate], the “Weight change, tin-plate” value [1, 8] is reported as -0.01 mg/cm^2, the “Weight change, steel” value [2, 8] is reported as -0.03 mg/cm^2 and the “Weight change, aluminum” value [3, 8] is reported as “+0.01 mg/cm^2”. The “Weight change, cast iron” value [4, 8] was -0.03 mg/cm^2, the “Weight change, brass” value [5, 8] was 0 mg/cm^2 and the “Weight change, copper” value [6, 8] was 0 mg/cm^2.

For `CCCCCCCCOCCCN1CCN=C(C)CC1=O` [Example 8, 4-octoxypropyl-7-methyl-3,6-dihydro-2H-1,4-diazepin-5-one], the “Weight change, tin-plate” value [1, 7] was -0.01 mg/cm^2, the “Weight change, steel” value [2, 7] was -0.02 mg/cm^2 and the “Weight change, aluminum” value [3, 7] was “+0.01 mg/cm^2”. The “Weight change, cast iron” value [4, 7] was -0.02 mg/cm^2, the “Weight change, brass” value [5, 7] was -0.01 mg/cm^2 and the “Weight change, copper” value [6, 7] was “+0.01 mg/cm^2”.

With `CCCCCCCCCCCCCCNCCN1CC[N+](C(C)C(=O)[O-])=CC(C)(C)C1=O` (stereo not drawn) [4-tetradecylaminoethyl-6,6-dimethyl-1-azonia-4-azacyclohept-7-en-5-one-1-propionate] the “Weight change, tin-plate” value [1, 8] was -0.03 mg/cm^2, the “Weight change, steel” value [2, 8] was -0.01 mg/cm^2 and the “Weight change, aluminum” value [3, 8] was “+0.01 mg/cm^2”. For the same molecule, the “Weight change, cast iron” value [4, 8] was 0 mg/cm^2, the “Weight change, brass” value [5, 8] was -0.02 mg/cm^2 and the “Weight change, copper” value [6, 8] was -0.02 mg/cm^2.

For `CC1=NCCN(CC(C)OCC(C)OCC(C)OCc2ccc(C)cc2)C(=O)C1` (stereo not drawn) [Example 39, 4-methylbenzylpoly(2moles)oxypropyleneoxypropyl-7-methyl-3,6-dihydro-2H-1,4-diazepin-5-one], the “Weight change, tin-plate” value [1, 7] was 0 mg/cm^2, the “Weight change, steel” value [2, 7] was -0.01 mg/cm^2 and the “Weight change, aluminum” value [3, 7] was “+0.02 mg/cm^2”. The “Weight change, cast iron” value [4, 7] was -0.01 mg/cm^2, the “Weight change, brass” value [5, 7] was -0.02 mg/cm^2 and the “Weight change, copper” value [6, 7] was “+0.02 mg/cm^2”.

For `CCCCCCCCCCCC[N+](C)(C)CC(=O)[O-]` [Lauryldimethylbetaine, lauryldimethylbetaine, reference compound], the “Weight change, tin-plate” value [1, 8] was -0.10 mg/cm^2, the “Weight change, steel” value [2, 8] was -0.19 mg/cm^2 and the “Weight change, aluminum” value [3, 8] was “+0.09 mg/cm^2”. The “Weight change, cast iron” value [4, 8] was -0.15 mg/cm^2, the “Weight change, brass” value [5, 8] was -0.23 mg/cm^2 and the “Weight change, copper” value [6, 8] was -0.15 mg/cm^2.

With `CCCCCCCC(=O)NCCN1CC[N+](C(C)C(=O)[O-])=CCCC1=O` (stereo not drawn) [4-octamidoethyl-4-aza-1-azoniacyclooct-8-en-5-one-1-propionate] the “Weight change, tin-plate” value [1, 8] was -0.02 mg/cm^2, the “Weight change, steel” value [2, 8] was -0.03 mg/cm^2 and the “Weight change, aluminum” value [3, 8] was “+0.02 mg/cm^2”. For the same molecule, the “Weight change, cast iron” value [4, 8] was -0.03 mg/cm^2, the “Weight change, brass” value [5, 8] was -0.01 mg/cm^2 and the “Weight change, copper” value [6, 8] was -0.02 mg/cm^2.

In the case of `CCCCCCCCCCC(O)CN1CC[N+](CC(=O)[O-])=C(C)CC1=O` (stereo not drawn) [4-(2-hydroxy)dodecyl-7-methyl-1-azonia-4-azacyclohept-7-en-5-one-1-acetate], the “Weight change, tin-plate” value [1, 8] is reported as -0.01 mg/cm^2, the “Weight change, steel” value [2, 8] is reported as -0.03 mg/cm^2 and the “Weight change, aluminum” value [3, 8] is reported as “+0.01 mg/cm^2”. For the same molecule, the “Weight change, cast iron” value [4, 8] was -0.02 mg/cm^2, the “Weight change, brass” value [5, 8] was -0.01 mg/cm^2 and the “Weight change, copper” value [6, 8] was -0.02 mg/cm^2.

In the case of `CCCCCCCCCCCCCCCCN1CC[N+](CC(=O)[O-])=C(C)CC1=O` [4-hexadecyl-7-methyl-1-azonia-4-azacyclohept-7-en-5-one-1-acetate], the “Weight change, tin-plate” value [1, 8] is reported as -0.01 mg/cm^2, the “Weight change, steel” value [2, 8] is reported as -0.02 mg/cm^2 and the “Weight change, aluminum” value [3, 8] is reported as 0 mg/cm^2. For the same molecule, the “Weight change, cast iron” value [4, 8] was -0.01 mg/cm^2, the “Weight change, brass” value [5, 8] was 0 mg/cm^2 and the “Weight change, copper” value [6, 8] was 0 mg/cm^2.

With `CCCCCCCCC=CCCCCCCCCN1CC[N+](CC(=O)[O-])=CCCC1=O` [4-(9-octadecenyl)-4-aza-1-azoniacyclooct-8-en-5-one-1-acetate] the “Weight change, tin-plate” value [1, 8] was -0.03 mg/cm^2, the “Weight change, steel” value [2, 8] was -0.02 mg/cm^2 and the “Weight change, aluminum” value [3, 8] was “+0.02 mg/cm^2”. For the same molecule, the “Weight change, cast iron” value [4, 8] was -0.02 mg/cm^2, the “Weight change, brass” value [5, 8] was -0.01 mg/cm^2 and the “Weight change, copper” value [6, 8] was 0 mg/cm^2.

With `CCCCCCCCCc1ccc(OCCOCCN2CCCN=CC(C)(C)C2=O)cc1` [Example 62, 1-nonylphenylpoly(2 moles)oxyethyleneoxyethyl-3,3-dimethyl-6,7,8-trihydro-1,5-diazocin-5-one] the “Weight change, tin-plate” value [1, 7] was -0.01 mg/cm^2, the “Weight change, steel” value [2, 7] was -0.02 mg/cm^2 and the “Weight change, aluminum” value [3, 7] was “+0.02 mg/cm^2”. For the same molecule, the “Weight change, cast iron” value [4, 7] was -0.02 mg/cm^2, the “Weight change, brass” value [5, 7] was -0.02 mg/cm^2 and the “Weight change, copper” value [6, 7] was “+0.02 mg/cm^2”.

In the case of `CCCCCCCCc1ccc(OCCOC(C)COC(C)CN2CC[N+](CC(=O)[O-])=C(C)CC2=O)cc1` (stereo not drawn), the “Weight change, tin-plate” value [1, 8] is reported as -0.02 mg/cm^2, the “Weight change, steel” value [2, 8] is reported as -0.01 mg/cm^2 and the “Weight change, aluminum” value [3, 8] is reported as 0 mg/cm^2. For the same molecule, the “Weight change, cast iron” value [4, 8] was -0.01 mg/cm^2, the “Weight change, brass” value [5, 8] was 0 mg/cm^2 and the “Weight change, copper” value [6, 8] was 0 mg/cm^2.

With `CCCCCCCCCCCCC(O)CN1CCC[N+](CC(=O)[O-])=C(C)CC1=O` (stereo not drawn) [1-(2-hydroxy)tetradecyl-4-methyl-1-aza-5-azoniacyclooct-4-en-2-one-5-acetate] the “Weight change, tin-plate” value [1, 8] was -0.02 mg/cm^2, the “Weight change, steel” value [2, 8] was -0.03 mg/cm^2 and the “Weight change, aluminum” value [3, 8] was “+0.02 mg/cm^2”. The “Weight change, cast iron” value [4, 8] was -0.02 mg/cm^2, the “Weight change, brass” value [5, 8] was -0.02 mg/cm^2 and the “Weight change, copper” value [6, 8] was -0.02 mg/cm^2.

For “4-(2-hydroxyhexadecyl)aminoethyl-6-methyl-3,6-dihydro-2H-1,4-diazepin-5-one [Example 41]”, the “Weight change, tin-plate” value [1, 7] was -0.01 mg/cm^2, the “Weight change, steel” value [2, 7] was -0.01 mg/cm^2 and the “Weight change, aluminum” value [3, 7] was 0 mg/cm^2. For the same molecule, the “Weight change, cast iron” value [4, 7] was -0.01 mg/cm^2, the “Weight change, brass” value [5, 7] was 0 mg/cm^2 and the “Weight change, copper” value [6, 7] was “+0.01 mg/cm^2”.

With `CCCCCCCCCCCCNCCN1CCN=C(C)CC1=O` [Example 2, 4-dodecylaminoethyl-7-methyl-3,6-dihydro-2H-1,4-diazepin-5-one] the “Weight change, tin-plate” value [1, 7] was 0 mg/cm^2, the “Weight change, steel” value [2, 7] was -0.01 mg/cm^2 and the “Weight change, aluminum” value [3, 7] was 0 mg/cm^2. For the same molecule, the “Weight change, cast iron” value [4, 7] was 0 mg/cm^2, the “Weight change, brass” value [5, 7] was -0.01 mg/cm^2 and the “Weight change, copper” value [6, 7] was 0 mg/cm^2.

For `CCCCCCCCCCCC(=O)NCCN1CC[N+](CC(=O)[O-])=CC(C)C1=O` (stereo not drawn) [4-lauramidoethyl-6-methyl-1-azonia-4-azacyclohept-7-en-5-one-1-acetate], the “Weight change, tin-plate” value [1, 8] was -0.03 mg/cm^2, the “Weight change, steel” value [2, 8] was -0.03 mg/cm^2 and the “Weight change, aluminum” value [3, 8] was “+0.02 mg/cm^2”. The “Weight change, cast iron” value [4, 8] was -0.02 mg/cm^2, the “Weight change, brass” value [5, 8] was 0 mg/cm^2 and the “Weight change, copper” value [6, 8] was -0.01 mg/cm^2.

For `CCCCCCCCCCC(O)CN1CCCN=CC(C)C1=O` (stereo not drawn) [Example 45, 1-(2-hydroxy)dodecyl-3-methyl-3,6,7,8-tetrahydro-1,5-diazocin-2-one], the “Weight change, tin-plate” value [1, 7] was -0.02 mg/cm^2, the “Weight change, steel” value [2, 7] was -0.02 mg/cm^2 and the “Weight change, aluminum” value [3, 7] was “+0.01 mg/cm^2”. For the same molecule, the “Weight change, cast iron” value [4, 7] was -0.02 mg/cm^2, the “Weight change, brass” value [5, 7] was -0.02 mg/cm^2 and the “Weight change, copper” value [6, 7] was “+0.03 mg/cm^2”.

In the case of `CCCCCC[C@@H](O)C/C=C\CCCCCCCC(=O)NCCN1CC[N+](CC(=O)[O-])=CC(C)(C)C1=O` [4-ricinolamidoethyl-6,6-dimethyl-1-azonia-4-azacyclohept-7-en-5-one-1-acetate], the “Weight change, tin-plate” value [1, 8] is reported as -0.02 mg/cm^2, the “Weight change, steel” value [2, 8] is reported as -0.01 mg/cm^2 and the “Weight change, aluminum” value [3, 8] is reported as “+0.02 mg/cm^2”. For the same molecule, the “Weight change, cast iron” value [4, 8] was -0.03 mg/cm^2, the “Weight change, brass” value [5, 8] was -0.02 mg/cm^2 and the “Weight change, copper” value [6, 8] was -0.02 mg/cm^2.
